Results taken from US10208000B2, “Eis inhibitors” (priority 2015, dated 2019).

How the values were obtained:
H37Rv Mtb = experiment: Mycobacterial MIC determination by alamar blue assay, KAN with sulfonyl isothiazoles; type: cell-based, Mycobacterium tuberculosis; settings: KAN MIC in presence of compound at concentration tested (100x IC50 or 20 μM); KAN line = absence of compound
K204 Mtb = settings: for K204 MICKAN: KAN MIC in presence of compound at concentration tested (100x IC50 or 20 μM), KAN line = absence of compound

| SMILES | H37Rv MICKAN (H37Rv Mtb) | K204 MICKAN (K204 Mtb) | overcoming resistance to KAN in Mtb K204 (in words) (K204 Mtb) |
| --- | --- | --- | --- |
| CCCN1CCN(C2=NS(=O)(=O)C(c3ccc(C)c(C)c3)=C2C)CC1 | 0.625 µg/mL | 5 µg/mL |  |
| CC1=C(c2ccc(C)c(C)c2)S(=O)(=O)N=C1NCC(=O)NCc1ccc(C)o1 | 1.25 µg/mL | 10 µg/mL | did not overcome resistance to KAN |
